Test system: EBOV GPΔTM Mayinga; residues 18–650 (wild type), Ebola virus (EBOV), Mayinga, Q05320 18-650
Assay: SEC; size-exclusion HPLC, Superose 6 10/300 column; purified EBOV GPΔTM

Substance: EBOV GPΔTM Mayinga; residues 18–650 (wild type)
- stoichiometry N: 3

Reference: paper PMC6328579, “Post-exposure immunotherapy for two ebolaviruses and Marburg virus in nonhuman primates” (2019)
